PMC8781304, “Arene-Ruthenium(II) Complexes with Carbothiamidopyrazoles as a Potential Alternative for Antibiotic Resistance in Human” (Molecules, 2022)

System: Supercoiled plasmid pUC57 DNA
Test: Cleavage of pUC57 DNA, agarose gel electrophoresis
Format: biochemical
Description: DNA supercoiling plays a key role in gene expression and genome organization. The agarose gel electrophoresis assay was used to check whether the tested complexes 3a–3c are able to cleave DNA. Supercoiled plasmid pUC57 DNA (4634 bp); Thermo Scientific, ABO Sp. z o.o., Gdansk, Poland), was incubated with tested compounds (100, 200 and 300 µM). Next, loading buffer (1 μL) containing […] bromophenol blue, 0.25% xylene cyanol and 30% glycerol was added to allow the samples to be loaded into 1% w/v agarose gel. Electrophoresis was performed at 75 V in Tris-acetate- EDTA (TAE) buffer. The gel was stained using Midori green advance DNA stain (Genetics, ABO Sp. z o.o., Gdansk, Poland), and visualised under UV light with the BioRad Gel Doc 2000 system using LABWORK software (Hercules, California, USA). All experiments were carried out in triplicate under the same conditions.

Cc1cc(C)[n+]2n1C(N)=[S+][Ru-]2[Cl].Cc1ccc(C(C)C)cc1.F[P-](F)(F)(F)(F)F [Compound 3a]
Concentration causing DNA sedimentation: ≥ 200 µM
